Anti-infective test results gathered from many reports (values: NIAID ChemDB through PubChem).

Common to all: tests in culture; species: HIV-1

Blank or dashed fields: not listed here. ECn: concentration that inhibits the pathogen or its effect by n%. Rows are shuffled and stem from different studies.

| compound | strain or isolate | cell line | setting | measure | method | value |
|---|---|---|---|---|---|---|
| Cc1cc2c(cc1NCc1ccc(F)cc1)c(=O)c(C(=O)NCc1ccc(F)cc1)cn2[C@H](CO)C(C)(C)C | NL4-3 | HeLa | pseudotyped | EC50 | luciferase | >0.1 µM |
| O=C1Nc2ccc(F)c(F)c2[C@@](C#CC2CC2)(C(F)(F)F)N1 | RF | MT-2 | - | EC90 | - | 0.0013 µM |
| CC(C)C1=C2[C@H]3CC[C@@H]4[C@@]5(C)CC[C@H](OC(=O)[C@H]6C[C@@H](C(=O)O)C6(C)C)C(C)(C)[C@@H]5CC[C@@]4(C)[C@]3(C)CC[C@@]2(CC(=O)N[C@@H](C)CNC(=O)c2ccc(Cl)cc2)CC1=O | 92HT599 | MT-2 | - | EC50 | p24 / ELISA | <1 µM |
| Cc1cn([C@@H]2OC[C@H](OCCP(=O)(O)O)[C@H]2O)c(=O)[nH]c1=O | - | MT-4 | - | EC50 | - | >250 µM |
| CC(C)[C@@H](CO)n1cc(C(=O)O)c(=O)c2cc(NCc3cccc(Cl)c3F)ncc21 | NL4-3 | HeLa | pseudotyped | EC50 | luciferase | >0.1 µM |
| C#C[C@@]1(O)[C@@H]([C@H](O)CO)O[C@@H](n2ccc(N)nc2=O)[C@@H]1O | IIIB | MT-4 | - | EC50 | antigen | >100 µM |
| CC(C)C1=C2[C@H]3CC[C@@H]4[C@@]5(C)CC[C@H](OC(=O)[C@H]6C[C@@H](C(=O)O)C6(C)C)C(C)(C)[C@@H]5CC[C@@]4(C)[C@]3(C)CC[C@@]2(CCNCC2CCC2)CC1=O | 92HT599 | MT-2 | - | EC50 | p24 / ELISA | <1 µM |
| Cc1cc(S(=O)(=O)Nc2nnc3c(Cl)cc(C(F)(F)F)cn23)c(S)cc1Cl | RF | CEM | - | EC50 | cytopathic effect / XTT | 51.2 µM |
| CC(C)C1(C#CC2CC2)NS(=O)(=O)Nc2ccc(Cl)cc21 | RF | MT-2 | - | EC90 | - | 0.677 µM |
| C#C[C@@]1(O)[C@@H]([C@@H](C)O)O[C@@H](n2ccc(N)nc2=O)[C@@H]1O | IIIB | MT-4 | - | EC50 | antigen | >100 µM |
| CC(C)C1=C2[C@H]3CC[C@@H]4[C@@]5(C)CC[C@H](OC(=O)[C@H]6C[C@@H](C(=O)O)C6(C)C)C(C)(C)[C@@H]5CC[C@@]4(C)[C@]3(C)CC[C@@]2(CC(=O)NC[C@@H](C)NC(=O)c2ccc(Cl)cc2)CC1=O | 92HT599 | MT-2 | - | EC50 | p24 / ELISA | <1 µM |
| COCc1nc(Nc2ccc(C#N)cc2)nc(Nc2c(C)cc(/C=C/C#N)cc2C)c1C(=O)NCCC#N | L1001+K103N | MT4 CMV-EGFP | - | EC50 | - | 0.0282 µM |
| CC(C)C1=C2[C@H]3CC[C@@H]4[C@@]5(C)CC[C@H](OC(=O)[C@H]6C[C@@H](C(=O)O)C6(C)C)C(C)(C)[C@@H]5CC[C@@]4(C)[C@]3(C)CC[C@@]2(CCNC(=O)C2CCCC2)CC1=O | 92HT599 | MT-2 | - | EC50 | p24 / ELISA | <1 µM |
| O=C1Nc2ccc(Cl)cc2[C@@](C#CC2CC2)(C(F)(F)F)N1 | RF | MT-2 | - | EC90 | - | 0.002 µM |
| COCc1nc(Nc2ccc(C#N)cc2)nc(Nc2c(C)cc(/C=C/C#N)cc2C)c1C(=O)NCCNC(C)=O | K103N+Y101C | MT4 CMV-EGFP | - | EC50 | - | 0.0209 µM |
| COc1cnc(CN=Cc2c(O)[nH]c3ccc(S(=O)(=O)N(CC(C)C)C[C@@H](O)[C@H](Cc4ccccc4)NC(=O)O[C@H]4CO[C@H]5OCC[C@H]54)cc23)c(OC)c1C | HXB2 Recombinant | MT-4 | - | EC50 | cytopathic effect / MTT | 0.03 µM |
| CO[C@H]1O[C@@H](n2ccc(=O)[nH]c2=O)C[C@@H]1N=[N+]=[N-] | KMR100 | MT-4 | - | EC50 | cytopathic effect / trypan blue | 0.009 µM |
| COCc1nc(Nc2ccc(C#N)cc2)nc(Nc2c(C)cc(/C=C/C#N)cc2C)c1C(=O)NCCc1cccs1 | L1001+K103N | MT4 CMV-EGFP | - | EC50 | - | 0.214 µM |
| C#C[C@@]1(O)[C@@H]([C@H](O)CO)O[C@@H](n2ccc(=O)[nH]c2=O)[C@@H]1O | IIIB | MT-4 | - | EC50 | antigen | >100 µM |
| COc1cc2c(cc1Cc1ccc(F)cc1F)c(=O)c(C(=O)O)cn2[C@H](CO)C(C)(C)C | NL4-3 | HeLa | pseudotyped | EC50 | luciferase | <0.01 µM |
| C=CCNC(=O)c1c(COC)nc(Nc2ccc(C#N)cc2)nc1Nc1c(C)cc(/C=C/C#N)cc1C | L1001+K103N | MT4 CMV-EGFP | - | EC50 | - | 0.0102 µM |
| CC(C)C1=C2[C@H]3CC[C@@H]4[C@@]5(C)CC[C@H](OC(=O)[C@H]6C[C@@H](C(=O)O)C6(C)C)C(C)(C)[C@@H]5CC[C@@]4(C)[C@]3(C)CC[C@@]2(CC(=O)NCC(C)(C)NC(=O)c2nccn2C)CC1=O | 92HT599 | MT-2 | - | EC50 | p24 / ELISA | <1 µM |
| C#C[C@]1(O)[C@@H](O)[C@H](n2ccc(=O)[nH]c2=O)OC1(CO)CO | IIIB | MT-4 | - | EC50 | antigen | >100 µM |
| C[S+](CC[C@H](N)C(=O)[O-])C[C@H]1O[C@@H](n2cnc3c(N)ncnc32)[C@H](O)[C@@H]1O | IIIB | PBMC | - | EC50 | p24 | <100 µg/mL |
| Cc1cn([C@H]2C[C@H](N=[N+]=[N-])[C@@H](CO)O2)c(=O)[nH]c1=O | - | C8166 | - | EC50 | cytopathic effect | 9 µM |
| COc1cnc2c(=O)c(C(=O)O)cn([C@H](CO)C(C)C)c2c1 | NL4-3 | HeLa | pseudotyped | EC50 | luciferase | >0.1 µM |
| COCc1nc(Nc2ccc(C#N)cc2)nc(Nc2c(C)cc(/C=C/C#N)cc2C)c1C(=O)NCc1ccccn1 | K103N+Y101C | MT4 CMV-EGFP | - | EC50 | - | 0.0214 µM |
| CC(C)C1=C2[C@H]3CC[C@@H]4[C@@]5(C)CC[C@H](OC(=O)[C@H]6C[C@@H](C(=O)O)C6(C)C)C(C)(C)[C@@H]5CC[C@@]4(C)[C@]3(C)CC[C@@]2(CC(=O)NCC(C)(C)NC(=O)c2ccc(N3CCOCC3)cc2)CC1=O | 92HT599 | MT-2 | - | EC50 | p24 / ELISA | <1 µM |
| COc1cc2c(cc1NCc1ccc(Cl)c(F)c1)C(=O)C(=O)C(C)N2c1ccc(C)cc1 | NL4-3 | HeLa | pseudotyped | EC50 | luciferase | >0.1 µM |
| C#C[C@@]1(OC(C)=O)[C@@H]([C@@H](C)OC(C)=O)O[C@@H](n2ccc(NC(=O)c3ccccc3)nc2=O)[C@@H]1OC(C)=O | IIIB | MT-4 | - | EC50 | antigen | >100 µM |
| COc1nc2c(cc1N1CCc3cc(F)ccc3C1)c(=O)c(C(=O)O)cn2[C@H](CO)C(C)C | NL4-3 | HeLa | pseudotyped | EC50 | luciferase | >0.1 µM |
| O=C(NCc1ccc(F)cc1)C1C(=O)N(O)C(=O)c2ccccc21 | IIIB | MT-4 | - | EC50 | cytopathic effect / MTT | 2.34 µM |
| O=S1(=O)Nc2ccc(Cl)cc2C(C#CC2CC2)(C2CC2)N1 | RF | MT-2 | - | EC90 | - | 0.279 µM |
| Nc1ncnc2c1ncn2[C@H]1C[C@@H](OCCP(=O)(O)O)CO1 | - | MT-4 | - | EC50 | - | >250 µM |
| COCc1nc(Nc2ccc(C#N)cc2)nc(Nc2c(C)cc(/C=C/C#N)cc2C)c1C(=O)N1CCC(O)CC1 | MDR | MT4 CMV-EGFP | - | EC50 | - | 6.17 µM |
| Cc1cc(S(=O)(=O)Nc2nnc3c(C(F)(F)F)cc(Cl)cn23)c(S)cc1Cl | RF | CEM | - | EC50 | cytopathic effect / XTT | 25.4 µM |

Repeating the first 3 entries:

| compound | strain or isolate | cell line | setting | measure | method | value |
|---|---|---|---|---|---|---|
| Cc1cc2c(cc1NCc1ccc(F)cc1)c(=O)c(C(=O)NCc1ccc(F)cc1)cn2[C@H](CO)C(C)(C)C | NL4-3 | HeLa | pseudotyped | EC50 | luciferase | >0.1 µM |
| O=C1Nc2ccc(F)c(F)c2[C@@](C#CC2CC2)(C(F)(F)F)N1 | RF | MT-2 | - | EC90 | - | 0.0013 µM |
| CC(C)C1=C2[C@H]3CC[C@@H]4[C@@]5(C)CC[C@H](OC(=O)[C@H]6C[C@@H](C(=O)O)C6(C)C)C(C)(C)[C@@H]5CC[C@@]4(C)[C@]3(C)CC[C@@]2(CC(=O)N[C@@H](C)CNC(=O)c2ccc(Cl)cc2)CC1=O | 92HT599 | MT-2 | - | EC50 | p24 / ELISA | <1 µM |